Values quoted from earlier work as cited in US7678774B2 (priority 2003, dated 2010).

Test system: SARS coronavirus
Conditions: cited from earlier work

Substance | In vitro anti-SARS-CoV activity
Intron A | not found to be active
Roferon | not found to be active
